From US8906906B2, “Viral replication inhibitors” (Katholieke Universiteit Leuven, priority 2009, dated 2014)

Test system: HIV (MT4-IIIB)
Test: Anti-HIV activity: inhibition of HIV-induced cytopathogenic effect in MT-4 cells (MTT)
Type: cell-based
Conditions: selectivity index, ratio of CC50 to IC50

Row | Structure (SMILES) | SI
1 | CCCC(C(=O)O)c1c(C)nc(-c2ccccc2)nc1-c1ccc(C)cc1F (stereo not shown) [cpd 98] | 3
2 | CCCC(C(=O)O)c1c(C)nc(N(C)C2CCCCC2)nc1-c1ccc(C)cc1 (stereo not shown) [cpd 12] | 2
3 | CCCC(C(=O)O)c1c(C)nc(-c2ccccc2)nc1-c1ccc(C)cc1O (stereo not shown) [cpd 119] | 4
4 | CCCC(C(=O)O)c1c(C)nc(N2CCCCC2)nc1-c1ccc(Cl)cc1F (stereo not shown) [cpd 146] | 8
5 | CCCC(C(=O)O)c1c(C)nc(-c2ccccc2)nc1-c1ccc(C)cc1 (stereo not shown) [cpd 14] | 5
6 | CCCC(C(=O)O)c1c(C)nc(-c2ccccc2Cl)nc1-c1ccccc1 (stereo not shown) [cpd 16] | >1
7 | CCCC(C(=O)O)c1c(C)nc(NCC(C)(C)C)nc1-c1ccc(C)cc1 (stereo not shown) [cpd 174] | 6
8 | CCCC(C(=O)O)c1c(C)nc(N2CCCC2)nc1-c1ccc(C)cc1 (stereo not shown) [cpd 30] | 9
9 | CCCC(C(=O)O)c1c(C)nc(N2CCCN(CC)CC2)nc1-c1ccc(C)cc1 (stereo not shown) [cpd 56] | >2
10 | CCCC(C(=O)O)c1c(C)nc(N2CCCC(C(=O)NCC(C)C)C2)nc1-c1ccc(C)cc1 (stereo not shown) [cpd 38] | 24
11 | COCCC(C(=O)O)c1c(C)nc(N2CCCCC2)nc1-c1ccc(C)cc1 (stereo not shown) [cpd 122] | >12
12 | CCCC(C(=O)O)c1c(C)nc(-c2ccccc2)nc1-c1ccccc1 (stereo not shown) [cpd 24] | >2
13 | CCCC(C(=O)O)c1c(C)nc(-c2ccccc2)nc1-c1ccc2occc2c1 (stereo not shown) [cpd 72] | 2
14 | Cc1ccc(-c2nc(N3CCCCC3)nc(C)c2C(CC(C)(C)C)C(=O)O)cc1 (stereo not shown) [cpd 152] | 21
15 | CCCC(C(=O)O)c1c(C)nc(N2CCCCC2)nc1N1CCCCC1 (stereo not shown) [cpd 148] | 8
16 | CCCC(C(=O)O)c1c(C)nc(-c2ccccc2)nc1-c1ccc(Cl)cc1O (stereo not shown) [cpd 111] | 4
17 | CCCC(C(=O)O)c1c(C)nc(N2CCCCC2)nc1-c1ccc(OC)cc1F (stereo not shown) [cpd 136] | 3
18 | CCCC(C(=O)O)c1c(C)nc(-c2ccc(C)cc2)nc1-c1ccc(C)cc1 (stereo not shown) [cpd 10] | 3
19 | Cc1ccc(-c2nc(N3CCCCC3)nc(C)c2C(OC(C)(C)C)C(=O)O)cc1 (stereo not shown) [cpd 154] | 111

Row | Structure (SMILES) | SI
20 | CCCC(C(=O)O)c1c(C)nc(-c2ccccc2)nc1N1CCCCC1 (stereo not shown) [cpd 60] | 5
21 | CCCC(C(=O)O)c1c(C)nc(N2CCCC(C)C2)nc1-c1ccc(C)cc1 (stereo not shown) [cpd 40] | 5
22 | CCCC(C(=O)O)c1c(C)nc(-c2ccccc2O)nc1-c1ccc(C)cc1 (stereo not shown) [cpd 158] | 7
23 | CCCC(C(=O)O)c1c(C)nc(-c2ccccc2)nc1-c1ccc(Cl)cc1 (stereo not shown) [cpd 102] | 11
24 | Cc1ccc(-c2nc(N3CCCCC3)nc(C)c2C(CCCC(F)(F)F)C(=O)O)cc1 (stereo not shown) [cpd 124] | 23
25 | CCCC(C(=O)O)c1c(C)nc(-c2cnn(C)c2)nc1-c1ccc(C)cc1 (stereo not shown) [cpd 162] | >3
26 | CCCC(C(=O)O)c1c(C)nc(NCc2ccccc2)nc1-c1ccc(C)cc1 (stereo not shown) [cpd 168] | 5
27 | CCCC(C(=O)O)c1c(C)nc(-c2ccccc2)nc1-c1cccc(O)c1 (stereo not shown) [cpd 26] | >2
28 | CCCC(C(=O)O)c1c(C)nc(-c2ccccc2)nc1-c1ccc2c(c1)CCO2 (stereo not shown) [cpd 70] | 2
29 | CCCC(C(=O)O)c1c(C)nc(-c2ccccc2)nc1N1CCCCCC1 (stereo not shown) [cpd 62] | 4
30 | CCCC(C(=O)O)c1c(C)nc(N2CCc3ccccc32)nc1-c1ccc(C)cc1 (stereo not shown) [cpd 58] | 13
31 | CCCC(C(=O)O)c1c(C)nc(-c2ccccc2)nc1-c1ccc(Cl)cc1F (stereo not shown) [cpd 94] | 4
32 | CCCC(C(=O)O)c1c(C)nc(N2CCCCC2)nc1-c1ccc(F)cc1F (stereo not shown) [cpd 130] | 4
33 | CCCC(C(=O)O)c1c(C)nc(N2CCCCC2)nc1-c1ccc(C)cc1 (stereo not shown) [cpd 22] | 11
34 | CCCC(C(=O)O)c1c(C)nc(N2CCCCC2)nc1-c1ccc(C)cc1C (stereo not shown) [cpd 132] | 3
35 | CCCC(C(=O)O)c1c(C)nc(N2CCCCC2)nc1-c1ccccc1 (stereo not shown) [cpd 20] | 8
36 | CCCC(C(=O)O)c1c(C)nc(-c2ccccc2)nc1N1CCN(C)CC1 (stereo not shown) [cpd 64] | >1
37 | CCCC(C(=O)O)c1c(C)nc(N2CCCCC2)nc1-c1ccc(C)cc1Cl (stereo not shown) [cpd 144] | 9
